The values that follow come from ChEMBL document CHEMBL4376895, “Structure and Activity Studies of Disulfide-Deficient Analogues of αO-Conotoxin GeXIVA” (J Med Chem, 2020).

Assay [1] can be described thus: Inhibition of Nav1.2/Nav1.4 (unknown origin) expressed in Xenopus laevis oocytes at -80 mV holding potential by two electrode voltage-clamp assay. In general terms: In two-electrode clamp one electrode senses voltage and the other passes current.
A short description of assay [2]: Antagonist activity at rat alpha6alpha3beta4 nAChR expressed in Xenopus laevis oocytes assessed as inhibition of Ach-induced response at -70 mV holding potential by two electrode voltage-clamp assay.
A short description of assay [3]: Antagonist activity at mouse alpha1beta1epsilondelta nAChR expressed in Xenopus laevis oocytes assessed as inhibition of Ach-induced response at -70 mV holding potential by two electrode voltage-clamp assay.

`C[C@@H]1NC(=O)[C@H](CCCNC(=N)N)NC(=O)[C@H](CO)NC(=O)[C@H](Cc2cnc[nH]2)NC(=O)[C@H](CC(=O)O)NC(=O)[C@H](CCCNC(=N)N)NC(=O)[C@@H]2CSSC[C@H](N)C(=O)N[C@@H](C)C(=O)N[C@@H](CC(N)=O)C(=O)N[C@@H](CSSC[C@@H](C(N)=O)NC1=O)C(=O)N[C@@H](CO)C(=O)N[C@@H](CO)C(=O)N[C@@H](CCCCN)C(=O)N[C@@H](Cc1c[nH]c3ccccc13)C(=O)N2`: the 50% inhibitory concentration (IC50) (commonly the concentration that inhibits the measured activity by half) in assay [1] turned out to be 17.4 µM.

As to `N=C(N)NCCC[C@@H]1NC(=O)[C@H](CO)NC(=O)[C@H](Cc2cnc[nH]2)NC(=O)[C@H](CC(=O)O)NC(=O)[C@H](CCCNC(=N)N)NC(=O)[C@@H]2CSSC[C@H](N)C(=O)N[C@H]3CSSC[C@H](NC1=O)C(=O)N[C@H](C(N)=O)CSSC[C@H](NC(=O)[C@H](CC(N)=O)NC3=O)C(=O)N[C@@H](CO)C(=O)N[C@@H](CO)C(=O)N[C@@H](CCCCN)C(=O)N[C@@H](Cc1c[nH]c3ccccc13)C(=O)N2`, in assay [1], it took 0.46 µM to reach half-maximal inhibition (IC50). On to `C[C@H](N)C(=O)N[C@H]1CSSC[C@@H]2NC(=O)[C@H](CCCNC(=N)N)NC(=O)[C@H](CO)NC(=O)[C@H](Cc3cnc[nH]3)NC(=O)[C@H](CC(=O)O)NC(=O)[C@H](CCCNC(=N)N)NC(=O)[C@H](C)NC(=O)[C@H](Cc3c[nH]c4ccccc34)NC(=O)[C@H](CCCCN)NC(=O)[C@H](CO)NC(=O)[C@H](CO)NC(=O)[C@H](CSSC[C@@H](C(N)=O)NC2=O)NC(=O)[C@H](CC(N)=O)NC1=O`, for which half-maximal inhibition in assay [1] (IC50) required 8.24 µM. For `CC[C@H](C)[C@H](NC(=O)[C@H](CCCNC(=N)N)NC(=O)[C@H](CCCNC(=N)N)NC(=O)[C@H](CO)NC(=O)[C@H](Cc1ccc(O)cc1)NC(=O)[C@H](CCCNC(=N)N)NC(=O)[C@H](CCCNC(=N)N)NC(=O)[C@H](CCCNC(=N)N)NC(=O)[C@H](CCCNC(=N)N)NC(=O)[C@H](CC(=O)O)NC(=O)[C@H](Cc1ccc(O)cc1)NC(=O)[C@@H]1CCCN1C(=O)[C@H](CO)NC(=O)[C@H](CCCNC(=N)N)NC(=O)[C@@H]1CSSC[C@H](NC(=O)[C@@H](N)[C@@H](C)O)C(=O)N[C@@H](CCCNC(=N)N)C(=O)N[C@@H](CO)C(=O)N[C@@H](CO)C(=O)NCC(=O)N[C@@H](CCCNC(=N)N)C(=O)N[C@@H](Cc2ccc(O)cc2)C(=O)N1)C(=O)N[C@H](C(=O)N[C@@H](CC(=O)O)C(=O)N[C@@H](C)C(=O)N[C@@H](CO)C(=O)N[C@H](C(=O)O)C(C)C)[C@@H](C)O`, the IC50 in assay [2] was 5.57 µM; in assay [3] it was 2.29 µM.
